No dose or concentration is given here for some results.
These molecules were tested on HeLa cells (assay: Cytotoxicity in HeLa cells (ATP content, ATPlite kit); SI calculated as CC50/EC50). Settings: SI is calculated as CC50/EC50, three days.
Format: cell-based
In the case of `N#CCCCn1c(CN2C(=O)C3(CCN(S(=O)(=O)C4CC4)CC3)c3ccncc32)nc2cc(Cl)ccc21` [Compound 112, 4-(5-Chloro-2-{[1-(cyclopropylsulfonyl)-2′-oxospiro-[piperidine-4,3′-pyrrolo[2,3-c]pyridin]-1′(2′H)-yl]methyl}-1H-benzimidazol-1-yl)butanenitrile], the SI_TOX-HELA_wt is reported as >3.969e+006. `CC(C)(C)OC(=O)N1CCC2(CC1)C(=O)N(Cc1cc3ccccc3n1CCCC(F)(F)F)c1cnccc12` [Compound 113, tert-Butyl 2′-oxo-1′-{[1-(4,4,4-trifluorobutyl)-1H-indol-2-yl]methyl}-1′,2′-dihydro-1H-spiro[piperidine-4,3′-pyrrolo[2,3-c]pyridine]-1-carboxylate] was tested, and the SI_TOX-HELA_wt was >1507.51. In the case of `CC(=O)NS(=O)(=O)N1CCC2(CC1)C(=O)N(Cc1cc3cc(Cl)ccc3n1CCCCF)c1cnccc12` [Compound 114, N-[(1′-{[5-Chloro-1-(4-fluorobutyl)-1H-indol-2-yl]methyl}-2′-oxo-1′,2′-dihydro-1H-spiro[piperidine-4,3′-pyrrolo[2,3-c]-pyridin]-1-yl)sulfonyl]acetamide], the SI_TOX-HELA_wt is reported as 120036. In the case of `CCOP(=O)(OCC)N1CCC2(CC1)C(=O)N(Cc1nc3cc(Cl)ccc3n1CCCC#N)c1cnccc12` [Compound 115, Diethyl (1′-{[5-chloro-1-(3-cyanopropyl)-1H-benzimidazol-2-yl]methyl}-2′-oxo-1′,2′-dihydro-1H-spiro[piperidine-4,3′-pyrrolo[2,3-c]pyridin]-1-yl)phosphonate], the SI_TOX-HELA_wt is reported as >1.455e+006. In the case of `CC(O)(C(=O)N1CCC2(CC1)C(=O)N(Cc1nc3cc(Cl)ccc3n1CCCC#N)c1cnccc12)C(F)(F)F` (centres unmarked) [Compound 116, 4-(5-Chloro-2-{[2′-oxo-1-(3,3,3-trifluoro-2-hydroxy-2-methylpropanoyl)spiro[piperidine-4,3′-pyrrolo[2,3-c]pyridin]-1′(2′H)-yl]methyl}-1H-benzimidazol-1-yl)butanenitrile], the SI_TOX-HELA_wt is reported as >1.42e+006. `CC(=O)NS(=O)(=O)N1CC2(C1)C(=O)N(Cc1cc3cc(Cl)ccc3n1CCCC#N)c1ccccc12` [Compound 117, N-[(1′-{[5-Chloro-1-(3-cyanopropyl)-1H-indol-2-yl]methyl}-2′-oxo-1′,2′-dihydro-1H-spiro[azetidine-3,3′-indol]-1-yl)sulfonyl]acetamide] was tested, and the SI_TOX-HELA_wt was 6595. For `CNC(=O)O[C@H]1C[C@@]2(C1)C(=O)N(Cc1cc3cc(Cl)ccc3n1CCCCF)c1ccccc12` [Compound 120, (1r,3r)-1′-((5-chloro-1-(4-fluorobutyl)-1H-indol-2-yl)methyl)-2′-oxospiro[cyclobutane-1,3′-indolin]-3-yl methylcarbamate], the SI_TOX-HELA_wt was 4817. `CC(C)(O)C(=O)N1CC[C@@]2(C1)C(=O)N(Cc1nc3cc(Cl)ccc3n1CCCS(C)(=O)=O)c1ccccc12` [Compound 121, (R)-1-({5-Chloro-1-[3-(methylsulfonyl)propyl]-1H-benzimidazol-2-yl}methyl)-1′-(2-hydroxy-2-methylpropanoyl)spiro[indole-3,3′-pyrrolidin]-2(1H)-one] was tested, and the SI_TOX-HELA_wt was >11676.2. `CC(C)(O)C(=O)N1CC[C@]2(C1)C(=O)N(Cc1nc3cc(Cl)ccc3n1CCCS(C)(=O)=O)c1ccccc12` [Compound 122, (S)-1-((5-chloro-1-(3-(methylsulfonyl)propyl)-1H-benzo[d]imidazol-2-yl)methyl)-1′-(2-hydroxy-2-methylpropanoyl)spiro[indoline-3,3′-pyrrolidin]-2-one] was tested, and the SI_TOX-HELA_wt was >12032.3. For `N#CCCCn1c(CN2c3ccccc3[C@]3(C[C@H](NC(=O)OC4CC4)C3)C2=O)nc2cc(Cl)ccc21` [Compound 125, cyclopropyl ((1s,3s)-1′-((5-chloro-1-(3-cyanopropyl)-1H-benzo[d]imidazol-2-yl)methyl)-2′-oxospiro[cyclobutane-1,3′-indolin]-3-yl)carbamate], the SI_TOX-HELA_wt was >342949. `N#CCCCn1c(CN2c3ccccc3[C@]3(C[C@@H](NC(=O)OC4CC4)C3)C2=O)nc2cc(Cl)ccc21` [Compound 126, cyclopropyl ((1r,3r)-1-((5-chloro-1-(3-cyanopropyl)-1H-benzo[d]imidazol-2-yl)methyl)-2′-oxospiro[cyclobutane-1,3′-indolin]-3-yl)carbamate] was tested, and the SI_TOX-HELA_wt was 199719. `N#CCCCn1c(CN2C(=O)C3(CN(C(=O)[C@H](O)CO)C3)c3ccccc32)cc2cc(Cl)ccc21` [Compound 131, (R)-4-(5-chloro-2-((1-(2,3-dihydroxypropanoyl)-2′-oxospiro[azetidine-3,3′-indolin]-1′-yl)methyl)-1H-indol-1-yl)butanenitrile] gave an SI_TOX-HELA_wt of 107026. In the case of `N#CCCCn1c(CN2C(=O)C3(CCN(C(=O)OC4CC4)CC3)c3ccncc32)cc2cc(Cl)ccc21` [Compound 132, Cyclopropyl 1′-{[5-chloro-1-(3-cyanopropyl)-1H-indol-2-yl]methyl}-2′-oxo-1′,2′-dihydro-1H-spiro[piperidine-4,3′-pyrrolo[2,3-c]pyridine]-1-carboxylate], the SI_TOX-HELA_wt is reported as 281041. `CS(=O)(=O)CCCn1c(CN2c3ccccc3[C@]3(C[C@@H](OC(=O)N4CCOCC4)C3)C2=O)nc2cc(Cl)ccc21` [Compound 133, (1r,3r)-1′-((5-chloro-1-(3-(methylsulfonyl)propyl)-1H-benzo[d]imidazol-2-yl)methyl)-2′-oxospiro[cyclobutane-1,3′-indolin]-3-yl morpholine-4-carboxylate] was tested, and the SI_TOX-HELA_wt was >714628. Molecule `CS(=O)(=O)CCCn1c(CN2C(=O)C3(CNC3)c3ccccc32)cc2cc(Cl)ccc21` [Compound 134, 1′-({5-Chloro-1-[3-(methylsulfonyl)propyl]-1H-indol-2-yl}methyl)spiro[azetidine-3,3′-indol]-2′(1′H)-one] has an SI_TOX-HELA_wt of 21330. With `COC(=O)N[C@H]1C[C@]2(C1)C(=O)N(Cc1nc3cc(Cl)ccc3n1CCCC#N)c1ccccc12` [Compound 135, methyl ((1s,3s)-1′-((5-chloro-1-(3-cyanopropyl)-1H-benzo[d]imidazol-2-yl)methyl)-2′-oxospiro[cyclobutane-1,3′-indolin]-3-yl)carbamate] the SI_TOX-HELA_wt was >1.054e+006. `COC(=O)N[C@H]1C[C@@]2(C1)C(=O)N(Cc1nc3cc(Cl)ccc3n1CCCC#N)c1ccccc12` [Compound 136, methyl ((1r,3r)-1′-((5-chloro-1-(3-cyanopropyl)-1H-benzo[d]imidazol-2-yl)methyl)-2′-oxospiro[cyclobutane-1,3′-indolin]-3-yl)carbamate] showed an SI_TOX-HELA_wt of 251299. Molecule `N#CCCCn1c(CN2C(=O)C3(CN(C(=O)C4(O)CC4)C3)c3ccccc32)cc2cc(Cl)ccc21` [Compound 137] has an SI_TOX-HELA_wt of 232965. In the case of `CC(C)(O)C(=O)N1CCC2(C1)C(=O)N(Cc1nc3cc(Cl)ccc3n1CCCS(C)(=O)=O)c1ccccc12` (centres unmarked) [Compound 138, 1-((5-chloro-1-(3-(methylsulfonyl)propyl)-1H-benzo[d]imidazol-2-yl)methyl)-1′-(2-hydroxy-2-methylpropanoyl)spiro[indoline-3,3′-pyrrolidlin]-2-one], the SI_TOX-HELA_wt is reported as >46631.6. In the case of `CC(C)NC(=O)N[C@H]1C[C@]2(C1)C(=O)N(Cc1nc3cc(Cl)ccc3n1CCCC#N)c1ccccc12` [Compound 143, 1-((1s,3s)-1′-((5-chloro-1-(3-cyanopropyl)-1H-benzo[d]imidazol-2-yl)methyl)-2′-oxospiro[cyclobutane-1,3′-indolin]-3-yl)-3-isopropylurea], the SI_TOX-HELA_wt is reported as >30292.8.

— patent US9617289B2, “RSV antiviral compounds” (JANSSEN R&D IRELAND, priority 2012, dated 2017)
